Compound potency records, mixed from different reports. Data source: NIAID ChemDB in PubChem.

Shared fields: growth or infection tests; agent: Mycobacterium avium complex; measure: MIC50

Lines come from different laboratories, so protocols vary. Two numbers with a dash give a range or band. MIC50, MIC90 and the like: level of inhibition, or share of isolates inhibited. Blank or dashed fields: not listed here.

{"compound": "C[C@@H]1CN(c2c(F)c(N)c3c(=O)c(C(=O)O)cn(C4CC4)c3c2F)C[C@H](C)N1", "strain or isolate": "16 isolates", "result": "1.56 µg/mL"}
{"compound": "CCn1cc(C(=O)O)c(=O)c2cc(F)c(N3CCS(=O)CC3)c(F)c21", "result": "8 µg/mL"}
{"compound": "COc1c(N2CCNC(C)C2)c(F)cc2c(=O)c(C(=O)O)cn(C3CC3)c12", "strain or isolate": "16 isolates", "result": "1.56 µg/mL"}
{"compound": "CC1CN(c2cc3c(cc2F)c(=O)c(C(=O)O)cn3C(C)C)CC(C)N1", "strain or isolate": "14 strains", "result": "16 µg/mL"}
{"compound": "CN1CCN(CCCN=c2cc3n(-c4ccc(Cl)cc4)c4ccccc4nc-3cc2Nc2ccccc2)CC1", "strain or isolate": "10 srtains", "result": "1.7 µg/mL"}
{"compound": "CN1CC2CCC1CN2c1c(F)cc2c(=O)c(C(=O)O)cn(C3CC3)c2c1F", "result": "1 µg/mL"}
{"compound": "CO[C@H]1/C=C/O[C@@]2(C)Oc3c(C)c(O)c4c(=O)c(c5oc6cc(N7CCN(CC(C)C)CC7)cc(=O)c6nc5c4c3=C2O)NC(=O)/C(C)=C\\C=C\\[C@H](C)[C@H](O)[C@@H](C)[C@@H](O)[C@@H](C)[C@H](OC(C)=O)[C@@H]1C", "strain or isolate": "18 strains", "result": "0.05 µg/mL"}
{"compound": "Clc1ccc(Nc2cc3nc4ccccc4n(-c4ccc(Cl)cc4)c-3cc2=NC2CCCC2)cc1", "result": "0.1 µg/mL"}
{"compound": "CCn1cc(C(=O)O)c(=O)c2cc(F)c(N3CCNCC3)cc21", "strain or isolate": "63 isolates", "result": "16 µg/mL"}
{"compound": "CN1CCCC1CCN=c1cc2n(-c3ccc(Cl)cc3)c3ccccc3nc-2cc1Nc1ccccc1", "strain or isolate": "10 srtains", "result": "1.6 µg/mL"}
{"compound": "O=C(O)c1cn(C2CC2)c2c(F)c(N3CCSCC3)c(F)cc2c1=O", "result": "4 µg/mL"}
{"compound": "CN[C@@H]1[C@H](O[C@H]2[C@H](O[C@H]3[C@H](O)[C@@H](O)[C@H](N=C(N)N)[C@@H](O)[C@@H]3N=C(N)N)O[C@@H](C)[C@]2(O)C=O)O[C@@H](CO)[C@H](O)[C@H]1O", "result": "2.2 µg/mL"}
{"compound": "Cc1c(F)c(N2CCNC(C)C2)c(C(F)(F)F)c2c1c(=O)c(C(=O)O)cn2C1CC1", "result": "8 µg/mL"}
{"compound": "C[C@@H]1CN(c2c(F)c(N)c3c(=O)c(C(=O)O)cn(C4CC4)c3c2F)C[C@H](C)N1", "result": "2–8 µg/mL"}
{"compound": "C[C@@H]1CN(c2c(F)c(N)c3c(=O)c(C(=O)O)cn(C4CC4)c3c2F)C[C@H](C)N1", "strain or isolate": "12 strains", "result": "0.5 µg/mL"}
{"compound": "CCn1cc(C(=O)O)c(=O)c2cc(F)c(N3CCNCC3)cc21", "result": "12.6 µg/mL"}
{"compound": "CO[C@H]1/C=C/O[C@@]2(C)Oc3c(C)c(O)c4c(O)c(c5c(c4c3C2=O)NC2(CCN(CC(C)C)CC2)N=5)=NC(=O)/C(C)=C\\C=C\\[C@H](C)[C@H](O)[C@@H](C)[C@@H](O)[C@@H](C)[C@H](OC(C)=O)[C@@H]1C", "strain or isolate": "10 isolates (HIV+)", "result": "0.125 µg/mL"}
{"compound": "C[C@@H]1CN(c2c(F)c(N)c3c(=O)c(C(=O)O)cn(C4CC4)c3c2F)C[C@H](C)N1", "strain or isolate": "20 strains", "result": "0.1–0.2 µg/mL"}
{"compound": "CCn1cc(C(=O)O)c(=O)c2cc(F)c(N3CCNCC3)nc21", "strain or isolate": "16 isolates", "result": "50 µg/mL"}
{"compound": "C[C@H]1COc2c(N3CCN(C)CC3)c(F)cc3c(=O)c(C(=O)O)cn1c23", "strain or isolate": "20 strains", "result": "6.25 µg/mL"}
{"compound": "C[C@H]1COc2c(N3CCN(C)CC3)c(F)cc3c(=O)c(C(=O)O)cn1c23", "strain or isolate": "16 isolates", "result": "12.5 µg/mL"}
{"compound": "CC(N)C1CCN(c2nc3c(cc2F)c(=O)c(C(=O)O)cn3C2CC2)C1", "result": "16 µg/mL"}
{"compound": "NC[C@H]1O[C@H](O[C@H]2[C@H](O)[C@@H](O[C@H]3O[C@H](CO)[C@@H](O)[C@H](N)[C@H]3O)[C@H](N)C[C@@H]2N)[C@H](O)[C@@H](O)[C@@H]1O", "result": "3.1 µg/mL"}
{"compound": "CC1CCN(c2c(F)cc3c(=O)c(C(=O)O)cn(C4CC4)c3c2F)C1", "result": "2 µg/mL"}
{"compound": "CC1COc2c(C3(N)CC3)c(F)cc3c(=O)c(C(=O)O)cn1c23", "strain or isolate": "14 strains", "result": "≥32 µg/mL"}
{"compound": "CC(C)N=c1cc2n(-c3ccc(Cl)cc3)c3ccccc3nc-2cc1Nc1ccc(Cl)cc1", "result": "0.13 µg/mL"}
{"compound": "CC1COc2c(N3CCN(C)CC3)c(F)cc3c(=O)c(C(=O)O)cn1c23", "result": "16–64 µg/mL"}
{"compound": "O=C(O)c1cn(C2CC2)c2c(F)c(N3CCS(=O)CC3)c(F)cc2c1=O", "result": "1 µg/mL"}
{"compound": "NC1CCN(c2nc3c(cc2F)c(=O)c(C(=O)O)cn3-c2ccc(F)cc2F)C1", "strain or isolate": "14 strains", "result": "≥32 µg/mL"}
{"compound": "NNC(=O)c1ccncc1", "result": "1.5 µg/mL"}
{"compound": "CC[C@H](C)N1CCN(c2cc(=O)c3nc4c(oc3c2)c2c(=O)c3c(O)c(C)c5c(c34)=C(O)[C@@](C)(O/C=C/[C@H](OC)[C@@H](C)[C@@H](OC(C)=O)[C@H](C)[C@H](O)[C@H](C)[C@@H](O)[C@@H](C)/C=C/C=C(/C)C(=O)N2)O5)CC1", "strain or isolate": "18 strains", "result": "0.1 µg/mL"}
{"compound": "CO[C@H]1/C=C/O[C@@]2(C)Oc3c(C)c(O)c4c(O)c(c(/C=N/N5CCN(C)CC5)c(O)c4c3C2=O)NC(=O)/C(C)=C\\C=C\\[C@H](C)[C@H](O)[C@@H](C)[C@@H](O)[C@@H](C)[C@H](OC(C)=O)[C@@H]1C", "strain or isolate": "20 strains", "result": "50 µg/mL"}
{"compound": "CCC1CN(c2cc3c(cc2F)c(=O)c(C(=O)O)cn3C2CC2)CCN1", "strain or isolate": "14 strains", "result": "2 µg/mL"}
{"compound": "N[C@@H]1CN(c2c(F)cc3c(=O)c(C(=O)O)cn([C@@H]4C[C@@H]4F)c3c2Cl)CC12CC2", "result": "2–8 µg/mL"}
{"compound": "CO[C@H]1/C=C/O[C@@]2(C)Oc3c(C)c(O)c4c(O)c(c(/C=N/N5CCN(C6CCCC6)CC5)c(O)c4c3C2=O)NC(=O)/C(C)=C\\C=C\\[C@H](C)[C@H](O)[C@@H](C)[C@@H](O)[C@@H](C)[C@H](OC(C)=O)[C@@H]1C", "result": "0.19 µg/mL"}
{"compound": "O=C(O)c1cn(C2CC2)c2c(F)c(N3CC4CCCC(C3)N4)c(F)cc2c1=O", "result": "2 µg/mL"}
{"compound": "CO[C@H]1/C=C/O[C@@]2(C)Oc3c(C)c(O)c4c(O)c(c5c(c4c3C2=O)NC2(CCN(CC(C)C)CC2)N=5)=NC(=O)/C(C)=C\\C=C\\[C@H](C)[C@H](O)[C@@H](C)[C@@H](O)[C@@H](C)[C@H](OC(C)=O)[C@@H]1C", "strain or isolate": "52 strains", "result": "0.39 µg/mL"}

A second listing of 4 rows from above:

compound	strain or isolate	result
Cc1c(F)c(N2CCNC(C)C2)c(C(F)(F)F)c2c1c(=O)c(C(=O)O)cn2C1CC1	-	8 µg/mL
NC1CCN(c2nc3c(cc2F)c(=O)c(C(=O)O)cn3-c2ccc(F)cc2F)C1	14 strains	≥32 µg/mL
CC1COc2c(C3(N)CC3)c(F)cc3c(=O)c(C(=O)O)cn1c23	14 strains	≥32 µg/mL
CC(N)C1CCN(c2nc3c(cc2F)c(=O)c(C(=O)O)cn3C2CC2)C1	-	16 µg/mL